Reference: patent US20160271244A1

Columns and labels:
DP178-Q16L [1] = test: ELISA on plate-bound MPER 2F5 peptide (DP178-Q16L), antibody titrated
DP178-Q16L [2] = test: ELISA on plate-bound DP178-Q16L, 2F5 titrated (overlay with rhKYNU)

2F5 (antibody)
EC50 (read off the curve) (DP178-Q16L [1]): 0.02 µg/mL | EC50 (read off the curve) (DP178-Q16L [2]): 0.02 µg/mL
